{
  "source": "paper PMC12077149",
  "about": "“Evolution of PqsE as a Pseudomonas aeruginosa-specific regulator of LuxR-type receptors: insights from Pseudomonas and Burkholderia” (mBio, 2025)",
  "key": {"[1]": {"system": "CC(=O)CC(=O)SCCNC(=O)CCNC(=O)[C@H](O)C(C)(C)COP(=O)(O)OP(=O)(O)OC[C@H]1O[C@@H](n2cnc3c(N)ncnc32)[C@H](O)[C@@H]1OP(=O)(O)O", "test": "purified protein", "conditions": "0.1 M Tris-HCl pH 8.0, 2 mM DTNB; 2 µM enzyme; substrate up to 1 mM; pH 8.0"}, "[2]": {"system": "CCCC(=O)Oc1ccc2c(C)cc(=O)oc2c1", "test": "purified protein", "conditions": "50 mM Tricine, 0.01% Triton X-100; 2 µM enzyme; substrate up to 8 µM"}},
  "data": [
    {"substance": "PqsE (Pseudomonas aeruginosa UCBPP-PA14; R243A/R246A/R247A)", "values": [
      {"measurement": "Km", "setting": "[1]", "result": "2900 ± 200", "unit": "µM"},
      {"measurement": "kcat", "setting": "[1]", "result": 0.35, "unit": "s⁻¹"},
      {"measurement": "kcat/Km", "setting": "[1]", "result": 120, "unit": "M⁻¹ s⁻¹"},
      {"measurement": "Km", "setting": "[2]", "result": "2.2 ± 0.2", "unit": "µM"},
      {"measurement": "kcat", "setting": "[2]", "result": 0.0562, "unit": "s⁻¹"},
      {"measurement": "kcat/Km", "setting": "[2]", "result": 26000, "unit": "M⁻¹ s⁻¹"}
    ]}
  ]
}
